Source: publication PMC12212376 (Antiviral research, 2025)

What was measured:
[1] = test system: Vero cells; assay: Cell toxicity MTT assay; conditions: cytotoxic dose/antiviral dose (1μM/8 nM)
[2] = Biodistribution and toxicology of nebulized lipopeptide in AGM

CC[C@H](C)[C@H](NC(=O)[C@H](CO)NC(=O)[C@H](CC(=O)O)NC(=O)[C@H](CC(C)C)NC(=O)[C@@H](NC(=O)[C@H](CCCCN)NC(=O)[C@H](CC(N)=O)NC(=O)[C@H](CO)NC(=O)[C@H](CCCNC(=N)N)NC(=O)[C@H](CCCNC(=N)N)NC(=O)[C@@H](NC(=O)[C@H](Cc1c[nH]c2ccccc12)NC(=O)[C@H](CCC(=O)O)NC(=O)[C@H](CCCCN)NC(=O)[C@H](CO)NC(=O)[C@H](CCC(=O)O)NC(=O)[C@H](CCC(=O)O)NC(=O)[C@H](CC(C)C)NC(=O)[C@H](CC(=O)O)NC(=O)[C@H](CO)NC(=O)[C@H](CCCCN)NC(=O)[C@@H](NC(=O)[C@H](CCCCN)NC(=O)[C@H](CC(N)=O)NC(=O)[C@H](CC(C)C)NC(=O)[C@@H](NC(=O)[C@@H](NC(=O)[C@H](CO)NC(=O)[C@@H](NC(=O)[C@H](CC(=O)O)NC(=O)[C@@H](NC(=O)[C@@H]1CCCN1C(=O)[C@H](CC(=O)O)NC(=O)[C@H](CC(C)C)NC(=O)[C@H](C)NC(=O)[C@@H](NC(C)=O)C(C)C)[C@@H](C)CC)[C@@H](C)CC)[C@@H](C)CC)C(C)C)[C@@H](C)CC)[C@@H](C)CC)[C@@H](C)CC)C(=O)NCC(=O)N[C@@H](CO)C(=O)NCC(=O)N[C@@H](CO)C(=O)NCC(=O)NC(CSCC(=O)NCCOCCOCCOCCOCCC(=O)O[C@H]1CC[C@@]2(C)C(=CC[C@H]3[C@@H]4CC[C@H]([C@H](C)CCCC(C)C)[C@@]4(C)CC[C@@H]32)C1)C(N)=O (stereo partly drawn) [VIKI-chol-PEG4]
In vitro Therapeutic Index [1]: over 125 | Blood biochemistry and hematology ([2]; single or triple nebulization, blood at 24, 48, 72h and 24h after last nebulization, n = 3): remained within normal range in all animals | Lipopeptide deposition in lungs (anti-VIKI immunofluorescence) ([2]; three consecutive nebulizations at one-day intervals, 3 mL at 4 mg/ml, lungs taken 24h after last nebulization, n = 3 treated AGMs): Staining was observed in different sections from both lungs of all treated animals
